Results of unrelated studies side by side (data: NIAID ChemDB).

Shared fields: whole-cell or culture tests; organism: Mycobacterium avium complex; measure: MIC

Rows are shuffled and stem from different studies.

structure,strain,value
CC1(C)S[C@@H]2[C@H](NC(=O)C(C(=O)O)c3ccccc3)C(=O)N2[C@H]1C(=O)O,CIPT 140310002,25 µg/mL
CC1(C)N=C(N)N=C(N)N1OCCCOc1cc(Cl)c(Cl)cc1Cl,690,1 µg/mL
CCCCS/C(N)=N\N=C\c1ccnnc1,ATCC 19421,12.5 µg/mL
CC(C)NC(=O)OCCn1sc2ccccc2c1=S,AN2,4 µg/mL
CO[C@H]1/C=C/O[C@@]2(C)Oc3c(C)c(O)c4c(=O)c(c5oc6cc(N7CCN(CCC(C)C)CC7)cc(=O)c6nc5c4c3=C2O)NC(=O)/C(C)=C\C=C\[C@H](C)[C@H](O)[C@@H](C)[C@@H](O)[C@@H](C)[C@H](OC(C)=O)[C@@H]1C,31F093T,0.15 µg/mL
CCCCN(CCCC)CNC(=O)c1cnccn1,101,>128 µg/mL
CCNC(=O)OCCn1sc2ccccc2c1=O,ATCC 15769,>32 µg/mL
C[C@@H]1CN(c2c(F)c(N)c3c(=O)c(C(=O)O)cn(C4CC4)c3c2F)C[C@H](C)N1,ATCC 35718,8 µg/mL
CCCCCCCCOC1OC([C@H](CO)OC2O[C@@H](C(O)CO)[C@H](O)[C@H]2O)[C@H](O)[C@H]1O,NJ211,>128 µg/mL
CCCNC(=O)OCCN=c1ssc2ccccc12,ISS 486,4 µg/mL
CCc1nc(N)nc(N)c1-c1ccc(Cl)cc1,DW6,32 µg/mL
CC(C)NC(=O)OCCN=c1ssc2ccccc12,AN2,4 µg/mL
CC[C@H]1OC(=O)[C@H](C)[C@@H](OC2C[C@@](C)(OC)[C@@H](O)[C@H](C)O2)[C@H](C)[C@@H](O[C@@H]2O[C@H](C)C[C@H](N(C)C)[C@H]2O)C(C)(O)C[C@@H](C)/C(=N\OCCC2CCCCC2)[C@H](C)[C@@H](O)[C@]1(C)O,20096,50 µg/mL
CCOCCN1CCN(c2cc(=O)c3nc4c(oc3c2)c2c(=O)c3c(O)c(C)c5c(c34)=C(O)[C@@](C)(O/C=C/[C@H](OC)[C@@H](C)[C@@H](OC(C)=O)[C@H](C)[C@H](O)[C@H](C)[C@@H](O)[C@@H](C)/C=C/C=C(/C)C(=O)N2)O5)CC1,31F093T,0.6 µg/mL
C[C@@H](O)[C@H]1C(=O)N2C(C(=O)O)=C(SCCN=CN)C[C@H]12,CIPT 140310012,>10 µg/mL
CCCCNC(=O)OCCn1sc2ccccc2c1=S,AN1,2 µg/mL
CC[C@H]1OC(=O)[C@H](C)[C@@H](O[C@H]2C[C@@](C)(OC)[C@@H](O)[C@H](C)O2)[C@H](C)[C@@H](O[C@@H]2O[C@H](C)C[C@H](N(C)C)[C@H]2O)[C@](C)(O)C[C@@H](C)/C(=N\OC)[C@H](C)[C@@H](O)[C@]1(C)O,20092,>50 µg/mL
C[C@@H]1CN(c2c(F)c(N)c3c(=O)c(C(=O)O)cn(C4CC4)c3c2F)C[C@H](C)N1,Isolate 90-1257,0.25 µg/mL
Cc1onc(-c2ccccc2Cl)c1C(=O)N[C@@H]1C(=O)N2[C@@H]1SC(C)(C)[C@@H]2C(=O)O,CIPT 140310002,10 µg/mL
CO[C@H]1/C=C/O[C@@]2(C)Oc3c(C)c(O)c4c(=O)c(c5oc6cc(N7CCN(CC(C)C)CC7)cc(=O)c6nc5c4c3=C2O)NC(=O)/C(C)=C\C=C\[C@H](C)[C@H](O)[C@@H](C)[C@@H](O)[C@@H](C)[C@H](OC(C)=O)[C@@H]1C,N-260,0.06 µg/mL
CO[C@H]1/C=C/O[C@@]2(C)Oc3c(C)c(O)c4c(O)c(c5c(c4c3C2=O)NC2(CCN(CC(C)C)CC2)N=5)=NC(=O)/C(C)=C\C=C\[C@H](C)[C@H](O)[C@@H](C)[C@@H](O)[C@@H](C)[C@H](OC(C)=O)[C@@H]1C,F,0.125 µg/mL
CN1CCN(CNC(=O)c2cnccn2)CC1,101,>128 µg/mL
CCCCCCCCO[C@@H]1O[C@@H](C(CO[C@@H]2O[C@@H](C(COC(C)=O)OC(C)=O)[C@H](OC(C)=O)[C@H]2OC(C)=O)OC)[C@H](OC)[C@H]1OC,NJ3404,>128 µg/mL
CN1N=C(c2ccncc2)OC1c1cccc(Cl)c1,12592 PI,>20 µg/mL
CC[C@H]1OC(=O)[C@H](C)[C@@H](OC2C[C@@](C)(OC)[C@@H](O)[C@H](C)O2)[C@H](C)[C@@H](O[C@@H]2O[C@H](C)C[C@H](N(C)C)[C@H]2O)C(C)(O)C[C@@H](C)/C(=N\OCCOc2ccccc2)[C@H](C)[C@@H](O)[C@]1(C)O,20096,25 µg/mL
CCNC(=O)OCCN=c1ssc2ccccc12,AN1,4 µg/mL
CCN(CC)CNC(=O)c1cnc(N(CC)CC)cn1,ATCC49601,>128 µg/mL
CC[C@@]1(O)OC(=O)[C@H](C)[C@@H](O[C@H]2C[C@@](C)(OC)[C@@H](O)[C@H](C)O2)[C@H](C)[C@@H](O[C@@H]2O[C@H](C)C[C@H](N(C)C)[C@H]2O)[C@](C)(OC)C[C@@H](C)C(=O)[C@H](C)[C@@H](O)[C@]1(C)O,LV-2,8 µg/mL
CO[C@H]1/C=C/O[C@@]2(C)Oc3c(C)c(O)c4c(O)c(c5c(c4c3C2=O)NC2(CCN(CC(C)C)CC2)N=5)=NC(=O)/C(C)=C\C=C\[C@H](C)[C@H](O)[C@@H](C)[C@@H](O)[C@@H](C)[C@H](OC(C)=O)[C@@H]1C,CIPT 140310012,0.1 µg/mL
CCCCCCCCO[C@H]1OC([C@@H](COC)O[C@H]2O[C@H]([C@@H](O)CO)[C@@H](O)[C@@H]2O)[C@@H](OC)[C@@H]1OC,NJ3404,>12.8 µg/mL
C[C@H]1COc2c(N3CCN(C)CC3)c(F)cc3c(=O)c(C(=O)O)cn1c23,ATCC 35718,>8 µg/mL
OC[C@H]1O[C@@H](CSc2ccccc2)[C@@H](O)[C@@H]1O,3 strains,>64 µg/mL
CCN(CC)CNC(=O)c1cnccn1,101,128 µg/mL
CC[C@H]1OC(=O)[C@H](C)[C@@H](O[C@H]2C[C@@](C)(OC)[C@@H](O)[C@H](C)O2)[C@H](C)[C@@H](O[C@@H]2O[C@H](C)C[C@H](N(C)C)[C@H]2O)[C@](C)(O)C[C@@H](C)CN(C)[C@H](C)[C@@H](O)[C@]1(C)O,101,8 µg/mL
CC1(C)N=C(N)N=C(N)N1c1ccc(Cl)cc1,LPR,>128 µg/mL
CC[C@H]1OC(=O)[C@H](C)[C@@H](OC2C[C@@](C)(OC)[C@@H](O)[C@H](C)O2)[C@H](C)[C@@H](O[C@@H]2O[C@H](C)C[C@H](N(C)C)[C@H]2O)C(C)(O)C[C@@H](C)/C(=N\OCCSc2ccccc2)[C@H](C)[C@@H](O)[C@]1(C)O,20092,25 µg/mL
CC[C@H]1OC(=O)[C@H](C)[C@@H](O[C@H]2C[C@@](C)(OC)[C@@H](O)[C@H](C)O2)[C@H](C)[C@@H](O[C@@H]2O[C@H](C)C[C@H](N(C)C)[C@H]2O)[C@](C)(OC)C[C@@H](C)C(=O)[C@H](C)[C@@H](O)[C@]1(C)O,N-444,8 µg/mL
O=C(NCN1CCOCC1)c1cnccn1,101,>128 µg/mL
CCCCCCCCOC1O[C@@H](C(O)COC2O[C@@H](C(O)CO)[C@H](O)[C@H]2O)[C@H](O)[C@H]1O,NJ211,>128 µg/mL
CC[C@H]1OC(=O)[C@H](C)[C@@H](OC2C[C@@](C)(OC)[C@@H](O)[C@H](C)O2)[C@H](C)[C@@H](O[C@@H]2O[C@H](C)C[C@H](N(C)C)[C@H]2O)C(C)(O)C[C@@H](C)/C(=N\OCc2ccccc2)[C@H](C)[C@@H](O)[C@]1(C)O,20039,3.13 µg/mL
CC(C)(C)NC(=O)OCCn1sc2ccccc2c1=O,ISS 486,>32 µg/mL
CC[C@H]1OC(=O)[C@H](C)[C@@H](OC2C[C@@](C)(OC)[C@@H](O)[C@H](C)O2)[C@H](C)[C@@H](O[C@@H]2O[C@H](C)C[C@H](N(C)C)[C@H]2O)C(C)(O)C[C@@H](C)/C(=N\OCCCc2ccccc2)[C@H](C)[C@@H](O)[C@]1(C)O,20096,12.5 µg/mL
OCCn1sc2ccccc2c1=S,AN1,2 µg/mL
CC[C@H]1OC(=O)[C@H](C)[C@@H](O[C@H]2C[C@@](C)(OC)[C@@H](O)[C@H](C)O2)[C@H](C)[C@@H](O[C@@H]2O[C@H](C)C[C@H](N(C)C)[C@H]2O)[C@](C)(O)C[C@@H](C)CN(C)[C@H](C)[C@@H](O)[C@]1(C)O,LV-2,8 µg/mL
OC[C@H]1N[C@@H](CSc2ccccc2)[C@@H](O)[C@@H]1O,3 strains,4 µg/mL
COc1ccc(OC)c(C2OC(c3ccncc3)=NN2C)c1,12592 PI,>20 µg/mL
CN(CNC(=O)c1cnccn1)Cc1ccccc1,ATCC49601,128 µg/mL
CN1N=C(c2ccncc2)OC1c1ccccc1,12592 PI,>20 µg/mL
CO[C@H]1/C=C/O[C@@]2(C)Oc3c(C)c(O)c4c(O)c(c5c(c4c3C2=O)NC2(CCN(CC(C)C)CC2)N=5)=NC(=O)/C(C)=C\C=C\[C@H](C)[C@H](O)[C@@H](C)[C@@H](O)[C@@H](C)[C@H](OC(C)=O)[C@@H]1C,31F093T,1.25 µg/mL
NC(=O)c1cnc(Cl)cn1,ATCC49601,32 µg/mL
CCCCCCO/N=C1\[C@H](C)CC(C)(O)[C@H](O[C@@H]2O[C@H](C)C[C@H](N(C)C)[C@H]2O)[C@@H](C)[C@H](OC2C[C@@](C)(OC)[C@@H](O)[C@H](C)O2)[C@@H](C)C(=O)O[C@H](CC)[C@@](C)(O)[C@H](O)[C@H]1C,20039,1.56 µg/mL
COc1c(N2CCNC(C)C2)c(F)cc2c(=O)c(C(=O)O)cn(C3CC3)c12,26777,>16 µg/mL
CN1N=C(c2ccncc2)OC1c1ccc(Cl)cc1,12592 PI,>20 µg/mL
CS/C(N)=N\N=C\c1ccnnc1,ATCC 19421,>100 µg/mL
CC[C@H]1OC(=O)[C@H](C)[C@@H](O[C@H]2C[C@@](C)(OC)[C@@H](O)[C@H](C)O2)[C@H](C)[C@@H](O[C@@H]2O[C@H](C)C[C@H](N(C)C)[C@H]2O)[C@](C)(O)C[C@@H](C)CN(C)[C@H](C)[C@@H](O)[C@]1(C)O,ATCC 35718,>8 µg/mL
CC[C@H]1OC(=O)[C@H](C)[C@@H](O[C@H]2C[C@@](C)(OC)[C@@H](O)[C@H](C)O2)[C@H](C)[C@@H](O[C@@H]2O[C@H](C)C[C@H](N(C)C)[C@H]2O)[C@](C)(OC)C[C@@H](C)C(=O)[C@H](C)[C@@H](O)[C@]1(C)O,MO-1,2 µg/mL
CCCCN(C)CNC(=O)c1cnccn1,101,128 µg/mL
O=c1c2ccccc2sn1CCO,AN3,32 µg/mL
Cc1cc(-c2cc3c(cc2F)c(=O)c(C(=O)O)cn3C2CC2)cc(C)n1,LV-2,1 µg/mL
CO[C@H]1/C=C/O[C@@]2(C)Oc3c(C)c(O)c4c(=O)c(c5oc6cc(N(C)CCN(C)C)cc(=O)c6nc5c4c3=C2O)NC(=O)/C(C)=C\C=C\[C@H](C)[C@H](O)[C@@H](C)[C@@H](O)[C@@H](C)[C@H](OC(C)=O)[C@@H]1C,31F093T,1.25 µg/mL

A second listing of 5 rows from above:

CCN(CC)CNC(=O)c1cnc(N(CC)CC)cn1 ; strain: ATCC49601 ; value: >128 µg/mL
CCCCN(C)CNC(=O)c1cnccn1 ; strain: 101 ; value: 128 µg/mL
CO[C@H]1/C=C/O[C@@]2(C)Oc3c(C)c(O)c4c(O)c(c5c(c4c3C2=O)NC2(CCN(CC(C)C)CC2)N=5)=NC(=O)/C(C)=C\C=C\[C@H](C)[C@H](O)[C@@H](C)[C@@H](O)[C@@H](C)[C@H](OC(C)=O)[C@@H]1C ; strain: CIPT 140310012 ; value: 0.1 µg/mL
C[C@@H]1CN(c2c(F)c(N)c3c(=O)c(C(=O)O)cn(C4CC4)c3c2F)C[C@H](C)N1 ; strain: ATCC 35718 ; value: 8 µg/mL
C[C@@H]1CN(c2c(F)c(N)c3c(=O)c(C(=O)O)cn(C4CC4)c3c2F)C[C@H](C)N1 ; strain: Isolate 90-1257 ; value: 0.25 µg/mL